This experiment concerns 1b con-1-based chimeric replicon containing 5a NS5B S282T. In kind it is cell-based, hepatitis C virus. Conditions: genotype 5a, S282T from corresponding wild-type.

In the case of `NC(=O)c1ncn([C@@H]2O[C@H](CO)[C@@H](O)[C@H]2O)n1` [Ribavirin, 1-β-D-ribofuranosyl-1H-1,2,4-triazole-3-carboxamide, reference compound], the “Fold Change” value was 0.3.

The values above are taken from patent US9549941B2, “Compositions and methods for treating hepatitis C virus” (priority 2011, dated 2017).
